Measured values from several laboratories, pooled; numbers as filed in NIAID ChemDB.

All rows: toxicity to cultured cells; cells: L6; measure: CC50

CCn is the concentration with n% toxicity to the cells.

smiles | method | result
CCCCOC(=O)CC[C@H](NC(=O)c1ccc(-c2cc(C#N)cc(C3(C(C)C)C(C#N)=C(N)Oc4n[nH]c(C)c43)c2)s1)C(=O)OCCCC | fluorescence | >145.2 µM
Nc1[nH]c(N=NC(=O)c2ccccn2)c2ccc3ccccc3c12 | - | 54 nM
Cn1c2nc3ccccc3c-2c(Cl)c2ccccc21 | resazurin | 1.459 µM
CN(C)S(=O)(=O)c1cccc2c(N=NC(=O)c3ccccn3)[nH]c(N)c12 | - | 297 nM
CCOC(=O)C1=C(O)/C(=C\c2cc(C)n(C3CCN(CCN4CCCCC4)CC3)c2C)N=C1C | - | 97 µM
CN(C)c1cc[n+](Cc2ccc(CCc3ccc(-[n+]4ccc(N(C)c5ccc(Cl)cc5)cc4)cc3)cc2)cc1 | resazurin | 0.1 µg/mL
Cc1[nH]nc2c1C(c1cc(Cl)cc(C(F)(F)F)c1)(C(C)C)C(C#N)=C(N)O2 | fluorescence | 46.5 µM
Nc1[nH]c(N=NC(=O)c2ccccn2)c2ccccc12 | - | 1368 nM
Cc1[nH]nc2c1C(c1cc(C#N)cc(-c3ccc(C(=O)NCCCN4CCN(C)CC4)s3)c1)(C(C)C)C(C#N)=C(N)O2 | fluorescence | 94.1 µM
CCOC(=O)C1=C(O)/C(=C\c2cc(C)n(C3CCNCC3)c2C)N=C1C | - | >250 µM
CCN(CC)CCCNC(=O)c1ccc(-c2cc(C#N)cc(C3(C(C)C)C(C#N)=C(N)Oc4n[nH]c(C)c43)c2)s1 | fluorescence | 96.8 µM
Nc1[nH]c(N=NC(=O)c2ccccn2)c2c(Sc3ccc(Cl)cc3)cccc12 | - | 114 nM
CCOC(=O)C1=C(O)/C(=C\c2cc(C)n(C3CCN(Cc4ccccn4)CC3)c2C)N=C1C | - | 5.9 µM
Nc1[nH]c(N=NC(=O)c2ccccn2)c2cccc(OCC(F)(F)F)c12 | - | 120 nM
CC[C@H]1CN2CCc3cc(OC)c(OC)cc3[C@@H]2C[C@@H]1C[C@H]1NCCc2cc(OC)c(OC)cc21 | MTT | 0.04 µM

The first 2 rows once more:

smiles,method,result
CCCCOC(=O)CC[C@H](NC(=O)c1ccc(-c2cc(C#N)cc(C3(C(C)C)C(C#N)=C(N)Oc4n[nH]c(C)c43)c2)s1)C(=O)OCCCC,fluorescence,>145.2 µM
Nc1[nH]c(N=NC(=O)c2ccccn2)c2ccc3ccccc3c12,-,54 nM

An empty or dashed field is not shown. Rows are shuffled and stem from different studies.